Pooled drug test results. Numbers come from NIAID ChemDB, via PubChem.

Shared fields: tests in culture

Two numbers with a dash give a range or band.

smiles,measure,dose,strain,cells,species,method,value
CC(C)(C)C1CCC(CN2C3=NC[C@H](C4CCCCC4)N3C[C@@H]2C2CCCCC2)CC1,MIC,-,ATCC 32045,-,Cryptococcus neoformans,-,4–8 µg/mL
CC[C@@]1([C@@H]2O[C@@H]([C@H]3O[C@@](O)(CO)[C@H](C)C[C@@H]3C)C[C@@H]2C)CC[C@H]([C@]2(C)CC[C@]3(C[C@H](O)[C@@H](C)[C@@H]([C@@H](C)[C@@H](OC)[C@H](C)C(=O)O)O3)O2)O1,inhibition,0.8 µg/mL,Calf isolate,L929,Cryptosporidium parvum,-,94.89%
O=c1[nH]c(=O)n([C@H]2C[C@H](O)[C@@H](CO)O2)cc1/C=C/Br,inhibition,50 µg/mL,-,-,Cryptosporidium parvum,-,7%
CO[C@@H]1C[C@@H](C[C@H]2CC[C@H](C)[C@H]([C@@H](C)C(=O)O)O2)O[C@]2(O[C@](C)([C@H]3CC[C@@](C)([C@@H]4O[C@@H]([C@H]5O[C@@](O)(CO)[C@H](C)C[C@@H]5C)C[C@@H]4C)O3)C[C@H]2C)[C@@H]1C,inhibition,0.032 µg/mL,Calf isolate,L929,Cryptosporidium parvum,-,-17.38%
NC[C@@H]1O[C@H](O[C@H]2[C@@H](O)[C@H](O[C@@H]3[C@@H](O)[C@H](N)C[C@H](N)[C@H]3O[C@H]3O[C@H](CO)[C@@H](O)[C@H](O)[C@H]3N)O[C@@H]2CO)[C@H](N)[C@@H](O)[C@@H]1O,inhibition,10 µg/mL,-,-,Cryptosporidium parvum,-,11%
CCN1C2=NC[C@H](Cc3ccccc3)N2C[C@@H]1CC1CCCCC1,EC50,-,ATCC 32045,-,Cryptococcus neoformans,-,41 µg/mL
N/C(=N\N=C\c1ccc(Cl)cc1)N/N=C/c1ccc(Cl)cc1,inhibition,4 µg/mL,Human isolate,L929,Cryptosporidium parvum,-,-1.26%
COC(=O)Nc1nc2ccc(Sc3ccccc3)cc2[nH]1,EC90,-,IU8698,-,Cryptococcus neoformans,-,0.014 µg/mL
O=S(=O)(F)Cc1ccccc1,inhibition,1000 µM,-,-,Cryptosporidium parvum,-,31.1%
CC(=O)N[C@@H](CC(C)C)C(=O)N[C@@H](CC(C)C)C(=O)N[C@H](C=O)CCCN=C(N)N,inhibition,10 µg/mL,-,-,Cryptosporidium parvum,cell count / microscopy,35.2%
C1CCC(C[C@@H]2CN3C(=NC[C@H]3C3CCCCC3)N2CCC23CC4CC(CC(C4)C2)C3)CC1,MIC,-,ATCC 32045,-,Cryptococcus neoformans,-,16–32 µg/mL
O=[N+]([O-])c1cc(C(F)(F)F)cc([N+](=O)[O-])c1N1COC1,EC50,-,-,MDCK cells,Cryptosporidium parvum,ELISA / luminescence,6.16 µM
CC[C@H]1/C=C(\C)[C@H](O)[C@H](C)C[C@H](OC)[C@H]2O[C@@](O)(C(=O)C(=O)N3CCCC[C@H]3C(=O)O[C@H](/C(C)=C/[C@@H]3CC[C@@H](O)[C@H](OC)C3)[C@H](C)[C@@H](O)CC1=O)[C@H](C)C[C@@H]2OC,MIC,-,H99 ΔCNA1 mutant,-,Cryptococcus neoformans,-,>42 µg/mL
COc1cc(O)c2c(c1)OC(c1ccc(O)cc1)CC2=O,MIC,-,NIH312,-,Cryptococcus gattii,broth dilution,320 µg/mL
O=c1[nH]c(=O)n([C@H]2C[C@H](O)[C@@H](CO)O2)cc1I,inhibition,10 µg/mL,-,-,Cryptosporidium parvum,-,84%
C=CC[C@@H]1/C=C(/C)C[C@H](C)C[C@H](OC)[C@H]2O[C@@](O)(C(=O)C(=O)N3CCCC[C@H]3C(=O)O[C@H](/C(C)=C/[C@@H]3CC[C@@H](O)[C@H](OC)C3)[C@H](C)[C@@H](O)CC1=O)[C@H](C)C[C@@H]2OC,MIC,-,H99,-,Cryptococcus neoformans,-,12.5 µg/mL
c1ccc2c(c1)-c1nccc3ccnc-2c13,inhibition,50 µg/mL,ATCC52627,-,Cryptococcus neoformans,-,80%
Nc1ncnc2c1ncn2[C@@H]1O[C@H](CO)[C@@H](O)[C@@H]1O,inhibition,25 µg/mL,-,-,Cryptosporidium parvum,-,16%
C[C@@H]1[C@H](O)[C@@H](C)/C=C/C=C/C=C/C=C/C=C/C=C/C=C/[C@H](O[C@@H]2O[C@H](C)[C@@H](O)[C@H](N)[C@@H]2O)C[C@@H]2O[C@](O)(C[C@@H](O)[C@H](O)CC[C@@H](O)C[C@@H](O)C[C@@H](O)CC(=O)O[C@H]1C)C[C@H](O)[C@H]2C(=O)O,MIC,-,ATCC 9949,-,Cryptococcus humicolus,broth dilution,2 µg/mL
C1CCC(C[C@H]2CN=C3N2C[C@H](C2CCCCC2)N3CCC23CC4CC(CC(C4)C2)C3)CC1,MIC,-,ATCC 32045,-,Cryptococcus neoformans,-,16–32 µg/mL
CC(C)N=C(N)/N=C(\N)Nc1ccc(Cl)cc1,inhibition,20 µg/mL,Calf isolate,L929,Cryptosporidium parvum,-,55%
CO/C1=C\C(C)=C\[C@@H](C)[C@@H](O)[C@@H](C)C/C(C)=C/C=C/[C@H](OC)[C@@H]([C@@H](C)[C@@H](O)[C@H](C)[C@@]2(O)C[C@@H](O)[C@H](C)[C@@H](C(C)C)O2)OC1=O,MIC,-,H99,-,Cryptococcus neoformans,-,>62.2 µg/mL
COC(=O)Nc1nc2ccc(C(=O)c3cccs3)cc2[nH]1,EC90,-,IU8698,-,Cryptococcus neoformans,-,0.12 µg/mL
C1CCC(C[C@H]2CN3C(=NC[C@H]3CC3CCCCC3)N2CCC23CC4CC(CC(C4)C2)C3)CC1,MIC,-,ATCC 32045,-,Cryptococcus neoformans,-,4–8 µg/mL
CN(C)[C@@H]1C(=O)C(C(N)=O)=C(O)[C@@]2(O)C(=O)C3=C(O)c4c(O)cccc4[C@@](C)(O)[C@H]3[C@H](O)[C@@H]12,inhibition,20 µg/mL,Calf isolate,L929,Cryptosporidium parvum,-,30.01%
Nc1ccn([C@@H]2O[C@H](CO)[C@@H](O)[C@@H]2O)c(=O)n1,inhibition,100 µg/mL,-,-,Cryptosporidium parvum,-,70%
CO[C@@H]1[C@@H](O[C@@H]2O[C@H](C)[C@@H](O[C@H]3C[C@@](C)(O)[C@@H](O)[C@H](C)O3)[C@H](N(C)C)[C@H]2O)[C@@H](CC=O)C[C@@H](C)[C@@H](O[C@H]2CC[C@H](N(C)C)[C@H](C)O2)/C=C/C=C/C[C@@H](C)OC(=O)C[C@H]1O,inhibition,4 µg/mL,Calf isolate,L929,Cryptosporidium parvum,-,39.63%
C1CCC(C[C@@H]2CN3C(=NC[C@@H]3CC3CCCCC3)N2CCC23CC4CC(CC(C4)C2)C3)CC1,EC50,-,ATCC 32045,-,Cryptococcus neoformans,-,2.3 µg/mL
Nc1nc2c(ncn2COCCO)c(=O)[nH]1,inhibition,25 µg/mL,-,-,Cryptosporidium parvum,-,0%
COC(=O)Nc1nc2ccccc2[nH]1,EC50,-,IU8698,-,Cryptococcus neoformans,-,<2 µg/mL
C[C@@H]1[C@H](O)[C@@H](C)/C=C/C=C/CC/C=C/C=C/C=C/C=C/C(O[C@H]2O[C@H](C)[C@@H](O)[C@H](N)[C@@H]2O)CC2O[C@](O)(CC(O)C(O)CCC(O)CC(O)CC(O)CC(=O)O[C@H]1C)CC(O)C2C(=O)O,MIC,-,CCUG 18919,-,Cryptococcus spp.,-,8 µg/mL

3 of the rows above, restated:

smiles	measure	dose	strain	cells	species	method	value
CO[C@@H]1[C@@H](O[C@@H]2O[C@H](C)[C@@H](O[C@H]3C[C@@](C)(O)[C@@H](O)[C@H](C)O3)[C@H](N(C)C)[C@H]2O)[C@@H](CC=O)C[C@@H](C)[C@@H](O[C@H]2CC[C@H](N(C)C)[C@H](C)O2)/C=C/C=C/C[C@@H](C)OC(=O)C[C@H]1O	inhibition	4 µg/mL	Calf isolate	L929	Cryptosporidium parvum	-	39.63%
CO[C@@H]1C[C@@H](C[C@H]2CC[C@H](C)[C@H]([C@@H](C)C(=O)O)O2)O[C@]2(O[C@](C)([C@H]3CC[C@@](C)([C@@H]4O[C@@H]([C@H]5O[C@@](O)(CO)[C@H](C)C[C@@H]5C)C[C@@H]4C)O3)C[C@H]2C)[C@@H]1C	inhibition	0.032 µg/mL	Calf isolate	L929	Cryptosporidium parvum	-	-17.38%
C1CCC(C[C@@H]2CN3C(=NC[C@@H]3CC3CCCCC3)N2CCC23CC4CC(CC(C4)C2)C3)CC1	EC50	-	ATCC 32045	-	Cryptococcus neoformans	-	2.3 µg/mL

Conditions beyond the fields shown may differ between rows. Inhibition is in % at the dose shown (toxicity tests: loss of growth or viability). Blank or dashed fields: not listed here. ECn is the concentration giving n% inhibition of infection, replication or growth.